In-gel DMS probing of monomeric and dimeric HIV-1 RNA

Reference: Ye et al. 2022, doi:10.1038/s41594-022-00746-2.

Sequence of the HIV-1 NL4-3 5' RNA, positions 1 to 437, as numbered in the source:
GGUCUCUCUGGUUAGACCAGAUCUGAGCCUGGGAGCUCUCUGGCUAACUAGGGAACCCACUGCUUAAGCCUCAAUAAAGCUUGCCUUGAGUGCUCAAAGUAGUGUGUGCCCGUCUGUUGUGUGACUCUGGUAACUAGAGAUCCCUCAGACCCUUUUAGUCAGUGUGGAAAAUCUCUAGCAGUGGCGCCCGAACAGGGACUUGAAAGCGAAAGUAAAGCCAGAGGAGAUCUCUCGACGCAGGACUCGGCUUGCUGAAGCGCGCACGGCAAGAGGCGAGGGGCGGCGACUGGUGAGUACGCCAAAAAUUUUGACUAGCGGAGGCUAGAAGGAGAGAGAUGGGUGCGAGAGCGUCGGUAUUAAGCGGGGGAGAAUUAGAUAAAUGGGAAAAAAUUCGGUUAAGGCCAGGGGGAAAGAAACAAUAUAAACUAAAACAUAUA

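Mutant RNA libraries with 1G, 2G or 3G starts, with or without cap, were folded at 37 °C for 30 min. Monomer and dimer bands were cut from native gels after folding in high salt (300 mM KCl, 5 mM MgCl2) or low salt (40 mM KCl, 0.1 mM MgCl2). Gel slices were treated with 170 mM dimethyl sulfate for 15 min at 37 °C and read by mutational profiling against an ethanol control.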

Scale: normalised reactivity, A and C only; low values point to paired or protected bases, higher values to unpaired ones.
One numbering serves 1G, 2G and 3G.
A position is written with its base.

{"position": "A171", "1G capped low-salt dimer": 0.46, "1G capped low-salt monomer": 0.44, "1G uncapped high-salt dimer": 0.47, "1G uncapped high-salt monomer": 0.48}
{"position": "C173", "1G capped low-salt dimer": 0.05, "1G capped low-salt monomer": 0.04, "1G uncapped high-salt dimer": 0.04, "1G uncapped high-salt monomer": 0.04}
{"position": "C175", "1G capped low-salt dimer": 0.05, "1G capped low-salt monomer": 0.04, "1G uncapped high-salt dimer": 0.04, "1G uncapped high-salt monomer": 0.04}
{"position": "A177", "1G capped low-salt dimer": 0.24, "1G capped low-salt monomer": 0.24, "1G uncapped high-salt dimer": 0.23, "1G uncapped high-salt monomer": 0.21}
{"position": "C179", "1G capped low-salt dimer": 0.77, "1G capped low-salt monomer": 0.72, "1G uncapped high-salt dimer": 0.82, "1G uncapped high-salt monomer": 0.81}
{"position": "A180", "1G capped low-salt dimer": 0.56, "1G capped low-salt monomer": 0.52, "1G uncapped high-salt dimer": 0.58, "1G uncapped high-salt monomer": 0.56}
{"position": "C185", "1G capped low-salt dimer": 0.45, "1G capped low-salt monomer": 0.42, "1G uncapped high-salt dimer": 0.47, "1G uncapped high-salt monomer": 0.44}
{"position": "C187", "1G capped low-salt dimer": 0.05, "1G capped low-salt monomer": 0.04, "1G uncapped high-salt dimer": 0.04, "1G uncapped high-salt monomer": 0.04}
{"position": "C188", "1G capped low-salt dimer": 0.09, "1G capped low-salt monomer": 0.08, "1G uncapped high-salt dimer": 0.08, "1G uncapped high-salt monomer": 0.07}
{"position": "C189", "1G capped low-salt dimer": 0.15, "1G capped low-salt monomer": 0.11, "1G uncapped high-salt dimer": 0.14, "1G uncapped high-salt monomer": 0.11}
{"position": "A191", "1G capped low-salt dimer": 0.39, "1G capped low-salt monomer": 0.39, "1G uncapped high-salt dimer": 0.40, "1G uncapped high-salt monomer": 0.41}
{"position": "A192", "1G capped low-salt dimer": 0.73, "1G capped low-salt monomer": 0.77, "1G uncapped high-salt dimer": 0.72, "1G uncapped high-salt monomer": 0.80}
{"position": "C193", "1G capped low-salt dimer": 0.77, "1G capped low-salt monomer": 0.81, "1G uncapped high-salt dimer": 0.77, "1G uncapped high-salt monomer": 0.80}
{"position": "A194", "1G capped low-salt dimer": 0.91, "1G capped low-salt monomer": 1.02, "1G uncapped high-salt dimer": 0.85, "1G uncapped high-salt monomer": 1.01}
{"position": "A198", "1G capped low-salt dimer": 0.62, "1G capped low-salt monomer": 0.61, "1G uncapped high-salt dimer": 0.61, "1G uncapped high-salt monomer": 0.60}
{"position": "C199", "1G capped low-salt dimer": 0.51, "1G capped low-salt monomer": 0.46, "1G uncapped high-salt dimer": 0.53, "1G uncapped high-salt monomer": 0.49}
{"position": "A203", "1G capped low-salt dimer": 0.51, "1G capped low-salt monomer": 0.50, "1G uncapped high-salt dimer": 0.52, "1G uncapped high-salt monomer": 0.52}
{"position": "A204", "1G capped low-salt dimer": 0.71, "1G capped low-salt monomer": 0.70, "1G uncapped high-salt dimer": 0.74, "1G uncapped high-salt monomer": 0.70}
{"position": "A205", "1G capped low-salt dimer": 0.35, "1G capped low-salt monomer": 0.32, "1G uncapped high-salt dimer": 0.36, "1G uncapped high-salt monomer": 0.31}
{"position": "C207", "1G capped low-salt dimer": 0.62, "1G capped low-salt monomer": 0.48, "1G uncapped high-salt dimer": 0.63, "1G uncapped high-salt monomer": 0.47}
{"position": "A209", "1G capped low-salt dimer": 0.43, "1G capped low-salt monomer": 0.46, "1G uncapped high-salt dimer": 0.43, "1G uncapped high-salt monomer": 0.46}
{"position": "A210", "1G capped low-salt dimer": 0.50, "1G capped low-salt monomer": 0.57, "1G uncapped high-salt dimer": 0.49, "1G uncapped high-salt monomer": 0.56}
{"position": "A211", "1G capped low-salt dimer": 0.47, "1G capped low-salt monomer": 0.39, "1G uncapped high-salt dimer": 0.50, "1G uncapped high-salt monomer": 0.41}
{"position": "A214", "1G capped low-salt dimer": 0.30, "1G capped low-salt monomer": 0.26, "1G uncapped high-salt dimer": 0.31, "1G uncapped high-salt monomer": 0.27}
{"position": "A215", "1G capped low-salt dimer": 0.65, "1G capped low-salt monomer": 0.51, "1G uncapped high-salt dimer": 0.69, "1G uncapped high-salt monomer": 0.54}
{"position": "A216", "1G capped low-salt dimer": 0.63, "1G capped low-salt monomer": 0.49, "1G uncapped high-salt dimer": 0.70, "1G uncapped high-salt monomer": 0.56}
{"position": "C218", "1G capped low-salt dimer": 0.05, "1G capped low-salt monomer": 0.04, "1G uncapped high-salt dimer": 0.05, "1G uncapped high-salt monomer": 0.04}
{"position": "C219", "1G capped low-salt dimer": 0.05, "1G capped low-salt monomer": 0.04, "1G uncapped high-salt dimer": 0.05, "1G uncapped high-salt monomer": 0.04}
{"position": "A220", "1G capped low-salt dimer": 0.24, "1G capped low-salt monomer": 0.32, "1G uncapped high-salt dimer": 0.21, "1G uncapped high-salt monomer": 0.34}
{"position": "A222", "1G capped low-salt dimer": 0.27, "1G capped low-salt monomer": 0.26, "1G uncapped high-salt dimer": 0.28, "1G uncapped high-salt monomer": 0.26}

The last 3 entries again:

{"position": "C219", "1G capped low-salt dimer": 0.05, "1G capped low-salt monomer": 0.04, "1G uncapped high-salt dimer": 0.05, "1G uncapped high-salt monomer": 0.04}
{"position": "A220", "1G capped low-salt dimer": 0.24, "1G capped low-salt monomer": 0.32, "1G uncapped high-salt dimer": 0.21, "1G uncapped high-salt monomer": 0.34}
{"position": "A222", "1G capped low-salt dimer": 0.27, "1G capped low-salt monomer": 0.26, "1G uncapped high-salt dimer": 0.28, "1G uncapped high-salt monomer": 0.26}